Measurements reported in paper PMC6467890, “A semi-synthetic neolignan derivative from dihydrodieugenol B selectively affects the bioenergetic system of Leishmania infantum and inhibits cell division” (Scientific Reports, 2019).

System: intracellular amastigotes of L. (L.) infantum
Experiment: Intracellular amastigotes in peritoneal macrophages, light microscopy counting (infection index)
Type: cell-based, Leishmania (L.) infantum
Conditions: for SI (Selectivity Index): ratio between CC50 in NCTC cells and IC50 in intracellular amastigotes
Description: Peritoneal macrophages (1 × 10^5 cell/well) in 16-well slide chambers (NUNC) were infected with amastigotes at a ratio of 10:1 (amastigotes/macrophage) and treated with compounds (60 to 10 µM) for 96 h. Stained slides (Giemsa) were counted using light microscopy and IC50 determined by the infection index. Miltefosine was used as standard and untreated cells as a negative control.

Row | Substance | SI (Selectivity Index) | selectivity index relative to dehydrodieugenol B (times higher than that of dehydrodieugenol B)
1 | 1-Propyl-3-(1′-propyl-3′-methoxyphenoxy)-5-methoxy-4-benzoyloxybenzene [Compound 2] | >32.8 | approximately 3 times
2 | 1-Propyl-3-(1′-propyl-3′-methoxyphenoxy)-4,5-dimethoxybenzene [Compound 3] | 2.7 | 
